In publication PMC5589098 (PLoS ONE, 2017):

Tested on: C57BL/6J mice
Settings: mouse, in vivo

NC1=N[C@H](O)[C@H]2[C@H]3O[C@]4(O)O[C@@H]([C@@H](O)[C@@]2(N1)[C@@H]4O)[C@]3(O)CO [TTX, tetrodotoxin]
side effects: caused sedation, and reduced motor coordination
